Results of unrelated studies side by side (data: NIAID ChemDB).

Common to all: host cell toxicity; cells: MT-2; read-out: CC50

Blank or dashed fields: not listed here.

smiles	read by	value
C=CC[C@H](NC(=O)[C@H](Cc1ccccc1)NS(=O)(=O)N1CCOCC1)C(=O)N[C@@H](CC1CCCCC1)[C@@H](O)C[C@H](C(=O)NCCCC)C(C)C		>13 µM
O=S(=O)(O)c1ccc(-c2c3nc(c(-c4ccc(S(=O)(=O)O)cc4)c4ccc([nH]4)c(-c4ccc(S(=O)(=O)O)cc4)c4nc(c(-c5ccc(S(=O)(=O)O)cc5)c5ccc2[nH]5)C=C4)C=C3)cc1		21 µg/mL
CSCC[C@H](N)C(=O)N[C@@H](CC(C)C)C(=O)N[C@@H](Cc1ccccc1)C(=O)N[C@H](C(=O)N[C@@H](Cc1ccccc1)C(=O)N1CCC[C@H]1C(=O)N[C@@H](CC(=O)O)C(=O)O)C(C)C		89.85 µg/mL
CCCCCCCCCCCCCCCCOCCCOP(=O)(O)CO[C@H](CO)Cn1cnc2c(N)ncnc21	propidium iodide	1 µM
Nc1nc(NC2CC2)c2ncn([C@H]3CO[C@@H](CO)O3)c2n1	MTT	>250 µM
Nc1nc2c(ncn2[C@H]2C[C@H](O)[C@](CO)(C(F)(F)F)O2)c(=O)[nH]1	absorbance	3.3 µM
Cn1nc(NS(C)(=O)=O)c2c(Cl)ccc(-n3c([C@H](Cc4cc(F)cc(F)c4)NC(=O)Cn4nc(C5CC5)c5c4C(F)(F)[C@@H]4C[C@H]54)nc4nc(OCCC(F)(F)F)ccc4c3=O)c21	XTT	>0.1 µM
CC(=O)N[C@@H](Cc1cccc2ccccc12)C(=O)N[C@H](C(=O)N[C@@H](CC(C)C)[C@@H](O)CC(=O)N[C@@H](CC(C)C)C(=O)N[C@@H](Cc1ccccc1)C(N)=O)C(C)C		>129 µM
Nc1nc(=O)n([C@@H]2CC[C@H](CO)O2)cc1F		>100 µM
Cc1nc(C(CN)NC(=O)C(=O)Nc2ccc3c(c2)OCO3)sc1CO	MTS	≥650 µM
CC(C)[C@H](N)C(=O)N[C@@H](Cc1ccccc1)C(=O)N1CCC[C@H]1C(=O)O		>100 µg/mL
Cc1nc(C(CN)NC(=O)c2ncc(-c3ccc(Cl)cc3)[nH]2)sc1CO	XTT / absorbance	>51 µM
O=C1NC(=O)C(CS)(CS)N1		>0.8 µM
CC1=C(CCC(=O)O)c2cc3[nH]c(cc4nc(cc5[nH]c(cc1n2)c(CCC(=O)O)c5CC(=O)O)C(CCC(=O)O)=C4C)c(CCC(=O)O)c3CC(=O)O		55.8 µg/mL
COc1ccc(N(C)C(=O)[C@H](Cc2ccccc2)NC(=O)C(C)(C)C(=O)N[C@@H](Cc2ccccc2)C(=O)N(C)c2ccc(OC)cc2)cc1	XTT	100 µM
COc1cc2c(c(OC)c1)[C@@H](N1CCCC1=O)C[C@@H](c1cccc(N)c1)N2	ATP	75.39 µM
CSCC[C@H](N)C(=O)N[C@@H](CC(C)C)C(=O)N[C@@H](Cc1ccccc1)C(=O)N[C@H](C(=O)O)C(C)C		1.09 µg/mL
Cn1nc(NS(C)(=O)=O)c2c(Cl)ccc(-n3c(C(Cc4cc(F)cc(F)c4)NC(=O)Cn4nc(C(F)F)c5c4C(F)(F)C4CC54)nc4nc(OCCC(C)(F)F)ccc4c3=O)c21	XTT	>10 µM
Nc1cccc([C@@H]2C[C@H](N3CCCC3=O)c3ccccc3N2)c1	ATP	>163 µM
CC#C[C@@]1(CO)C=C[C@H](n2cc(C)c(=O)[nH]c2=O)O1	cell count	>100 µM
C=CC1=C(C)C2=NC1=CC1=NC(=CC3=C(C)C(=C([O-])[O-])C(=N3)C(CC(=O)O)=C3NC(=C2)C(C)C3CCC(=O)O)C(CC)=C1C.[Mg+2]		77 µg/mL
CC(C)[C@H](NC(=O)[C@@H](N)Cc1ccccc1)C(=O)N[C@@H](Cc1ccccc1)C(=O)N1CCC[C@H]1C(=O)O		78.86 µg/mL
C[C@H]1[C@H](O)[C@@H](C)/C=C/C=C/C=C/C=C/C=C/C=C/C=C/[C@H](O[C@@H]2O[C@H](C)[C@@H](O)[C@H](N)[C@@H]2O)C[C@@H]2O[C@](O)(C[C@@H](O)C[C@@H](O)CC[C@H](O)[C@@H](O)C[C@@H](O)CC(=O)O[C@H]1C)C[C@H](O)[C@H]2C(=O)O	MTT	>10 µM
COc1ccc2c(c1)[C@@H](N1CCCC1=O)C[C@@H](c1cccc(N)c1)N2	MTT	103 µM
COC(=O)c1ccc(CSCC2(CSCc3ccc(C(=O)OC)cc3)NC(=O)NC2=O)cc1		>10 µM
CSCC[C@H](N)C(=O)N[C@@H](CC(C)C)C(=O)N[C@@H](Cc1ccccc1)C(=O)O		88.44 µg/mL
C=Cc1c(C)c2cc3nc(cc4[nH]c(cc5nc(cc1[nH]2)C(C)=C5CO)c(C)c4CCC(=O)O)C(CCC(=O)O)=C3C		31 µg/mL
CN(C(=O)[C@H](Cc1ccccc1)Nc1ncc(-c2cnc(N[C@@H](Cc3ccccc3)C(=O)N(C)c3ccc4scnc4c3)nc2)cn1)c1ccc2scnc2c1	XTT	100 µM
C1=Cc2nc1c(-c1ccccc1)c1ccc([nH]1)c(-c1ccccc1)c1nc(c(-c3ccccc3)c3ccc([nH]3)c2-c2ccccc2)C=C1		>80 µg/mL
CN(C(=O)[C@H](Cc1cc(F)cc(F)c1)NC(=O)c1ccc(F)c(C(=O)N[C@@H](Cc2cc(F)cc(F)c2)C(=O)N(C)c2ccc3scnc3c2)c1)c1ccc2scnc2c1	XTT	100 µM
CC(C)c1ccccc1-c1ccc2c(=O)n(-c3ccc(Cl)c4c(NS(C)(=O)=O)nn(C)c34)c([C@H](Cc3cc(F)cc(F)c3)NC(=O)Cn3nc(C(F)F)c4c3C(F)(F)[C@@H]3C[C@H]43)nc2c1	XTT	>0.5 µM
COc1ccnc2[nH]cc(C(=O)C(=O)N3CCN(C(=O)c4ccccc4)C[C@H]3C)c12		>225 µM
COc1ccc(N(C)C(=O)[C@H](Cc2cc(F)cc(F)c2)NC(=O)c2ccc(F)c(C(=O)N[C@@H](Cc3cc(F)cc(F)c3)C(=O)N(C)c3ccc(OC)nc3)c2)cn1	XTT	100 µM
O=C(Oc1ccc2c(c1OC(=O)c1ccccc1)C(=O)c1ccccc1C2=O)c1ccccc1	MTT	>100 µM
O=C(O)CCC1=C(CC(=O)O)c2cc3nc(cc4[nH]c(cc5[nH]c(cc1n2)c(CC(=O)O)c5CCC(=O)O)c(CC(=O)O)c4CCC(=O)O)C(CC(=O)O)=C3CCC(=O)O		35 µg/mL
Cc1cc2nc(-c3cccc([N+](=O)[O-])c3)ccc2c(C)c1C	MTT	>50 µM
Cc1cccc(Cl)c1CN1CCc2cc(-c3c(C)nc(C)c([C@H](OC(C)(C)C)C(=O)O)c3N3CCC(C)(C)CC3)ccc2C1	MTT	≥24 µM
O=C1NC(=O)C(CSCc2ccncc2)(CSCc2ccncc2)N1		>45 µM
COc1ccc(-c2ccc(C(=O)NC(CN)c3ncc(CO)s3)[nH]2)cc1OC	XTT / absorbance	>50 µM
Cc1cc(C)c2ccc(-c3cccc([N+](=O)[O-])c3)nc2c1	ATP	>180 µM
C[C@@H](C(=O)N[C@@H](Cc1cc(F)cc(F)c1)c1nc2cc(-c3ccccc3F)ccc2c(=O)n1-c1ccc(Cl)c2c(NS(=O)(=O)C3CC3)nn(CC(F)F)c12)n1ccc(C2CC2)n1	XTT	>0.5 µM
CCc1ncc(N(C)C(=O)[C@H](Cc2cc(F)cc(F)c2)NC(=O)CN2c3ccccc3N(CC(=O)N[C@@H](Cc3cc(F)cc(F)c3)C(=O)N(C)c3cnc(CC)nc3)S2(=O)=O)cn1	XTT	38.7 µM
O=C1NC(=O)C(CSCC2CCCCC2)(CSCC2CCCCC2)N1		>12 µM
CC(C)C[C@H](N)C(=O)N[C@@H](Cc1ccccc1)C(=O)N[C@H](C(=O)N[C@@H](Cc1ccccc1)C(=O)N1CCC[C@H]1C(=O)O)C(C)C		17.36 µg/mL
Cn1nc(NS(C)(=O)=O)c2c(Cl)ccc(-n3c([C@H](Cc4cc(F)cc(F)c4)NC(=O)Cn4nc(C5CC5)c5c4C(F)(F)[C@H]4C[C@@H]54)nc4nc(OCCC(C)(F)F)ccc4c3=O)c21	XTT	>0.1 µM
COc1ccc(N(C)C(=O)[C@H](Cc2ccccc2)NC(=O)NS(=O)(=O)N[C@@H](Cc2ccccc2)c2nnc(SC)o2)cc1	XTT	100 µM
O=C1NC(=O)C(CSCc2cccs2)(CSCc2cccs2)N1		>17 µM
COc1cc(OC)c2ccc(-c3cccc([N+](=O)[O-])c3)nc2c1	ATP	>161 µM
Cc1nc(C(CN)NC(=O)c2cnc(-c3ccc(Cl)cc3)[nH]2)sc1CO	XTT / absorbance	>51 µM
CC(C)C[C@H](NC(=O)[C@@H](N)CC(=O)O)C(=O)N[C@@H](Cc1ccccc1)C(=O)N[C@H](C(=O)N[C@@H](Cc1ccccc1)C(=O)N1CCC[C@H]1C(=O)O)C(C)C		75.01 µg/mL
N#Cc1ccc(CSCC2(CSCc3ccc(C#N)cc3)NC(=O)NC2=O)cc1		>8 µM

CCn: concentration that lowers growth or viability of the cells by n%. Rows are shuffled and stem from different studies.